Data taken from patent US7713926B2 (National University Corporation Gunma University, priority 2004, dated 2010).

Assay: general procedure: solution-phase peptide synthesis; EDC.HCl/HOBt; also HBTU/HOBt and DCC/HOBt
Conditions: coupling step

Row | Substance | step yield
1 | Boc-Asn-Asn-Asp(OBzl)-Gly-OTce | 87%
2 | Boc-Asn-Asp(OBzl)-Gly-Gly-OBzl) | 81%
3 | Boc-Asn-Lys(Cl-Z)-Thr(Bzl)-Tyr(Cl2-Bzl)-Asp(OBzl)-Leu-Asp(OBzl)-Phe-Lys(Cl-Z)-Thr(Bzl)-Pro-Asn-Asn-Asp(OBzl)-Gly-Gly-OBzl | 94%
4 | Boc-Asn-Lys(Cl-Z)-Thr(Bzl)-Tyr(Cl2-Bzl)-Asp(OBzl)-Leu-Asp(OBzl)-Phe-Lys(Cl-Z)-Thr(Bzl)-Pro-Asn-Asn-Asp(OBzl)-Gly-OTce | 75%
5 | Boc-Asn-Lys(Cl-Z)-Thr(Bzl)-Tyr(Cl2-Bzl)-Asp(OBzl)-Leu-OTce | 94%
6 | Boc-Asp(OBzl)-Phe-Lys(Cl-Z)-Thr(Bzl)-Pro-Asn-Asn-Asp(OBzl)-Gly-OTce | 66%
7 | Boc-Cys(Acm)-Gly-Gly-Ala-Ser(Bzl)-Glu(OBzl)-Phe-Tyr(Cl2-Bzl)-Asn-Ser(Bzl)-Glu(OBzl)-Asn-Lys(Cl-Z)-Thr(Bzl)-Tyr(Cl2-Bzl)-Asp(OBzl)-Leu-Asp(OBzl)-Phe-Lys(Cl-Z)-Thr(Bzl)-Pro-Asn-Asn-Asp(OBzl)-Gly-OTc | 69%
8 | Boc-D(OBn)FK(ClZ)T(Bn)PNND(OBn)GG-OBn | 63%
9 | Boc-Glu(OBzl)-Ala-Ser(Bzl)-Glu(OBzl)-OTce | 94%
10 | Boc-Glu(OBzl)-Glu(OBzl)-Glu(OBzl)-Glu(OBzl)-Ala-Ser(Bzl)-Glu(OBzl)-Phe-Tyr(Cl2-Bzl)-Asn-Ser(Bzl)-Glu(OBzl)-Asn-Lys(Cl-Z)-Thr(Bzl)-Tyr(Cl2-Bz) -Asp(OBzl)-Leu-Asp(OBzl)-Phe-Lys(Cl-Z)-Thr(Bzl)-Pro-Asn-Asn-Asp(OBzl)-Gly-Gly-OBzl | 77%
11 | Boc-Gly-Ala-Ser(Bzl)-Glu(OBzl)-OTce | 89%
12 | Boc-Gly-Gly-Ala-Ser(Bzl)-Glu(OBzl)-OTce | 92%
13 | Boc-Lys(Cl-Z)-Thr(Bzl)-Tyr(Cl2-Bzl)-Asp(OBzl)-Leu-OTce | 89%
14 | Boc-NND(OBn)GG-OBn | 64%
15 | Boc-Phe-Tyr(Cl2-Bzl)-Asn-Ser(Bzl)-Glu(OBzl)-Asn-Lys(Cl-Z)-Thr(Bzl)-Tyr(Cl2-Bzl)-Asp(OBzl)-Leu-Asp(OBzl)-Phe-Lys(Cl-Z)-Thr(Bzl)-Pro-Asn-Asn-A sp(OBzl)-Gly-OTce | 42%
16 | Boc-Phe-Tyr(Cl2-Bzl)-Asn-Ser(Bzl)-Glu(OBzl)-Asn-Lys(Cl-Z)-Thr(Bzl)-Tyr(Cl2-Bzl)-Asp(OBzl)-Leu-Asp(OBzl)-Phe-Lys(Cl-Z)-Thr(Bzl)-Pro-Asn-Asn-Asp(OBzl)-Gly-Gly-OBzl | 73%
17 | Boc-Thr(Bzl)-Tyr(Cl2-Bzl)-Asp(OBzl)-Leu-OTce | 76%
18 | Boc-[Glu(OBzl)]2-Ala-Ser(Bzl)-Glu(OBzl)-OTce | 92%
19 | Boc-[Glu(OBzl)]3-Ala-Ser(Bzl)-Glu(OBzl)-OTce | 89%
20 | Boc-[Glu(OBzl)]4-Ala-Ser(Bzl)-Glu(OBzl)-OTce | 90%

Same assay, conditions: coupling step; run 1

Row | Substance | step yield
21 | Boc-Asp(OBzl)-Phe-Lys(Cl-Z)-Thr(Bzl)-Pro-OTce | 85%
22 | Boc-Phe-Lys(Cl-Z)-Thr(Bzl)-Pro-OTce | 69%
23 | Boc-Phe-Tyr(Cl2-Bzl)-Asn-Ser(Bzl)-Glu(OBzl)-OTce | 95%
24 | Boc-Tyr(Cl2-Bzl)-Asn-Ser(Bzl)-Glu(OBzl)-OTce | 73%

Same assay, conditions: coupling step; run 2

Row | Substance | step yield
25 | Boc-Asp(OBzl)-Phe-Lys(Cl-Z)-Thr(Bzl)-Pro-OTce | 78%
26 | Boc-Phe-Lys(Cl-Z)-Thr(Bzl)-Pro-OTce | 78%
27 | Boc-Phe-Tyr(Cl2-Bzl)-Asn-Ser(Bzl)-Glu(OBzl)-OTce | 91%
28 | Boc-Tyr(Cl2-Bzl)-Asn-Ser(Bzl)-Glu(OBzl)-OTce | 82%

Same assay, conditions: late stage modification step

Row | Substance | step yield
29 | Boc-C(Acm)GGAS(Bn)E(OBn)-OH | 72%
30 | Boc-Cys(Acm)-Gly-Gly-Ala-Ser(Bzl)-Glu(OBzl)-Phe-Tyr(Cl2-Bzl)-Asn-Ser(Bzl)-Glu(OBzl)-Asn-Lys(Cl-Z)-Thr(Bzl)-Tr(Cl2-Bzl)-Asp(OBzl)-Le u-Asp(OBzl)-Phe-Lys(Cl-Z)-Thr(Bzl)-Pro-Asn-Asn-Asp(OBzl)-Gly-OH | 62%
31 | Boc-Phe-Tyr(Cl2-Bzl)-Asn-Ser(Bzl)-Glu(OBzl)-OH | 95%
32 | Boc-[Glu(OBzl)]4-Ala-Ser(Bzl)-Glu(OBzl)-OH | 90%
33 | H-C(Acm)GGASEFYNSENKTYDLDFKTPNNDG-OH | 77%
34 | H-EEEEASEFYNSENKTYDLDFKTPNNDGG-OH | 81%

Same assay, conditions: late stage modification step; run 1

Row | Substance | step yield
35 | Boc-Asn-Lys(Cl-Z)-Thr(Bzl)-Tyr(Cl2-Bzl)-Asp(OBzl)-Leu-OH | 88%
36 | Boc-D(OBn)FK(ClZ)T(Bn)P-OH | 81%

Same assay, conditions: late stage modification step; run 2

Row | Substance | step yield
37 | Boc-Asn-Lys(Cl-Z)-Thr(Bzl)-Tyr(Cl2-Bzl)-Asp(OBzl)-Leu-OH | 89%
38 | Boc-D(OBn)FK(ClZ)T(Bn)P-OH | 91%

The star is where a group is joined. ClZ = O=C(OCc1ccccc1Cl)*; Boc = CC(C)(C)OC(=O)*; OBn = c1ccc(CO*)cc1; Bn = c1ccc(C*)cc1; Acm = CC(=O)NC*
